Measured values from several laboratories, pooled; numbers as filed in NIAID ChemDB.

Common to all: growth or infection tests; species: Cryptococcus neoformans; read-out: MIC

Neighbouring rows are from separate reports. a–b is a range or a potency band. Blank or dashed fields: not listed here.

compound | strain or isolate | result
CCn1cc(C(=O)O)c(=O)c2cc(F)c(N3CCN(CN4C(=O)C(=Nc5ccc(S(=O)(=O)Nc6ncccn6)cc5)c5ccccc54)CC3)cc21 | - | 2.44 µg/mL
Clc1ccc(OCCC(Cn2ccnc2)c2ccc(Cl)cc2Cl)c(Cl)c1 | - | <1 µg/mL
COC(=O)c1ccc(N2C(=O)C(OC(C)=O)C2c2ccccc2)cc1 | AH27/A | 73.74 µM
O=[N+]([O-])c1ccc(CC(c2cccs2)n2ccnc2)cc1 | - | 37.5 µM
O=C1C(O)C(c2cccc3ccccc23)N1c1ccc(Br)cc1 | AH27/A | 154 µM
Clc1ccc(C(COc2ccc(Br)cc2)Cn2ccnc2)c(Cl)c1 | - | <1 µg/mL
O=C1CC(c2ccccc2)N(C(=O)CCl)C(c2ccccc2)C1 | - | >200 µg/mL
CC(=O)OC1C(=O)N2CCCSC12c1ccccc1 | AH27/A | 90.25 µM
C[C@H]1[C@H](O)[C@@H](C)/C=C/C=C/C=C/C=C/C=C/C=C/C=C/[C@H](O[C@@H]2O[C@H](C)[C@@H](O)[C@H](N)[C@@H]2O)C[C@@H]2O[C@](O)(C[C@@H](O)C[C@@H](O)CC[C@H](O)[C@@H](O)C[C@@H](O)CC(=O)O[C@H]1C)C[C@H](O)[C@H]2C(=O)O | Isolate 89-98 | ≤0.14 µg/mL
CSc1cc(-c2ccc(Cl)cc2)c(C(=O)O)s1 | CN-17 | >100 µg/mL
CCn1cc(C(=O)O)c(=O)c2cc(F)c(N3CCN(CN4C(=O)C(=Nc5ccc(S(=O)(=O)Nc6ncnc(OC)c6OC)cc5)c5cc(Cl)ccc54)CC3)cc21 | - | 2.44 µg/mL
Clc1ccc(CN(Cc2ccc(-c3ccccc3)cc2)n2ccnc2)c(Cl)c1 | - | 2.5 µM
Clc1ccc(C(CCOc2ccccc2)Cn2ccnc2)c(Cl)c1 | - | <1 µg/mL
COC(=O)c1ccc(N2C(=O)C(OC(C)=O)C2c2ccc(C)cc2)cc1 | AH27/A | 70.82 µM
CCOC(=O)c1sc(SC)cc1-c1ccc(C)cc1 | CN-17 | >100 µg/mL
COc1cc(O)c2c(c1)C(=O)c1c(cc3c(c1O)-c1c(cc(C)c(C(=O)NC(CO)C(=O)O)c1O)[C@H](OC1OC(C)C(N(C)C)C(OC4OCC(O)C(O)C4O)C1O)[C@H]3O)C2=O | IAM 4514 | 1.6 µg/mL
CCC(C)n1ncn(-c2ccc(N3CCN(c4ccc(OC[C@H]5CO[C@](Cn6cncn6)(c6ccc(Cl)cc6Cl)O5)cc4)CC3)cc2)c1=O | TIMM0354 | 0.0313 µg/mL
CCOC(=O)c1sc(SC)c(C#N)c1O | CN-17 | >100 µg/mL
CC(C(O)(Cn1cncn1)c1ccc(F)cc1F)S(C)(=O)=O | B4500 (AZOLE-S) | 5 µM
Clc1ccc(OCCCC(Cn2ccnc2)c2ccc(Cl)cc2Cl)cc1 | - | 10 µg/mL
COc1ccc(CC(Cc2ccc(-c3ccccc3)cc2)n2ccnc2)cc1 | - | 5.5 µM
CN[C@@H]1[C@H](O[C@@H]2O[C@H](CO)[C@@H](O)[C@H](S(=O)(=O)O)[C@H]2O)[C@@H](O)[C@H](O[C@H]2c3cc(C)c(C(=O)N[C@H](CO)C(=O)O)c(O)c3-c3c(cc4c(c3O)C(=O)c3cc(OC)cc(O)c3C4=O)[C@@H]2O)O[C@@H]1C | IAM 4514 | 6.3 µg/mL
Cc1ccc(N2C(=O)[C@@H](O)[C@H]2/C=C/c2ccccc2)cc1 | AH27/A | 5.37 µM
CCOC(=O)c1sc(SC)cc1-c1ccccc1 | CN-17 | >100 µg/mL
Nc1ccc(CC(c2ccc(Cl)s2)n2ccnc2)cc1 | - | 37.5 µM
CCn1cc(C(=O)O)c(=O)c2cc(F)c(N3CCN(CN4C(=O)/C(=N\c5ncc(Cc6cc(OC)c(OC)c(OC)c6)c(N)n5)c5cc(Br)ccc54)CC3)cc21 | - | 0.6 µg/mL
Clc1ccccc1CC(Cc1ccc(-c2ccccc2)cc1)n1ccnc1 | - | 5.5 µM
CCOC(=O)c1sc2cc(-c3ccc(F)cc3)oc(=O)c2c1N | CN-17 | >100 µg/mL
Cn1cccc1C(Cc1ccc(Cl)cc1)n1ccnc1 | - | 150 µM
CCOC(=O)c1sc(SC)cc1-c1ccc(Cl)cc1 | CN-17 | >100 µg/mL
CCn1cc(C(=O)O)c(=O)c2cc(F)c(N3CCN(CN4C(=O)/C(=N\c5ncc(Cc6cc(OC)c(OC)c(OC)c6)c(N)n5)c5cc(Cl)ccc54)CC3)cc21 | - | 0.6 µg/mL
Cn1ccc(C(Cc2ccc(Cl)cc2)n2ccnc2)c1 | - | 75 µM
CCOC(=O)c1sc2cc(-c3cccc([N+](=O)[O-])c3)oc(=O)c2c1N | CN-17 | >100 µg/mL
Cn1cccc1C(Cc1ccc(Cl)cc1Cl)n1ccnc1 | - | 75 µM
CSc1cc(-c2ccc(Br)cc2)c(C(=O)O)s1 | CN-17 | >100 µg/mL
CCCCC(=O)OC1CC(OC(C)C(C)C(O)C(C)C(O)C(C)C2OC(=O)/C=C/CC(O)CC(O)CC(O)CCC(C)C(O)C[C@@]3(O)O[C@H](CC(O)CC(OC(=O)CC(=O)O)CCCC(O)C4OC4C2C)C[C@H](O)[C@H]3O)OC(C)C1O | ATCC90112 | >100 µg/mL
CCC(C)CC(C)CCCCCCCCC(=O)N[C@H]1C[C@@H](O)[C@H](NCCN)NC(=O)[C@@H]2[C@@H](O)CCN2C(=O)[C@H]([C@H](O)CCN)NC(=O)[C@H]([C@H](O)[C@@H](O)c2ccc(O)cc2)NC(=O)[C@@H]2C[C@@H](O)CN2C(=O)[C@H]([C@@H](C)O)NC1=O | 19 isolates | 0.25–1 µg/mL
CCn1cc(C(=O)O)c(=O)c2cc(F)c(N3CCN(CN4C(=O)C(=Nc5ccc(S(=O)(=O)Nc6ncnc(OC)c6OC)cc5)c5cc(Br)ccc54)CC3)cc21 | - | 1.22 µg/mL
Clc1ccc(C(COc2ccccc2Cl)Cn2ccnc2)cc1 | - | <1 µg/mL